# Tested on: Aspergillus niger-ATCC 9642, Penicillium funiculosum-ATCC 11797, Chaetomium globosum-ATCC 6205, Trichoderma virens-ATCC 9645, Aureobasidium pullulans-ATCC 15233
# Assay: ASTM G21 strengthened (fungal growth on specimen, 28 days)
# Assay type: cell-based, mold fungi (composite spore suspension)
# Details: memory foam A1
substance,measurement,setting,value
Trisodium N-(1-carboxylato-ethyl) imidodiacetate,G21 (ASTM G21 strengthened rating),"0.2 pbw (B) with 0.5 pbw (C) dimethyltetradecyl(3-(trimethoxysilyl)propyl)ammonium chloride, (E) Diglyme 0.8 pbw",3 (30 to 60% of the surface is covered with mold fungi)
same,G21 (ASTM G21 strengthened rating),"0.4 pbw (B) with 0.5 pbw (C) dimethyltetradecyl(3-(trimethoxysilyl)propyl)ammonium chloride, (E) Water 0.6 pbw",4 (at least 60% of the surface is covered with mold fungi)

# — patent US20230128969A1, “POLYURETHANE FOAM COMPOSITIONS WITH ANTIMICROBIAL PROPERTIES” (SANITIZED AG, priority 2020, published 2023)
